## Results of single-concentration screens

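Growth of Mycobacterium tuberculosis over 4 days (cholesterol / DPPC medium with tyloxapol); the read-out is not stated. Concentration: 500 µM. Direction is inferred from retests: higher values go with more growth inhibition. Size under these conditions: about 18,000 compounds, about 900 of them at 50% or above in at least one test.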

Each number is a percent effect as filed. The controls that fix the scale are not given in the record; negative values are as filed. Many other results are left out here, so strong results are more common than in the screen.

For COc1cccc(CN(C)C(=O)c2occc2C)n1 the result was 54.79%.
For COc1ccc(OCCSCC(=O)NCCC#N)cc1 the result was 86.24%.
For CCOC(=O)N1CCC(NC(=O)c2ccsc2)CC1 the result was 41.81%.
For COc1cccc(CN2CCS(=O)(=O)CC2)c1OC the result was 4.555%.
For CC(C)CC(NC(N)=O)C(=O)Nc1cc(F)cc(F)c1 (configuration not stated) the result was 51.95%.
For Cc1nc(=N)c(C)c(C)[nH]1 the result was -3.207%.
For CCOCCC(=O)NC(C)c1nncn1C(C)C (configuration not stated) the result was -6.597%.
For Cc1nc(C(=O)NCCN2CCCCC2CO)cs1 (configuration not stated) the result was -6.904%.
For CC(C)C1CNCCO1 (configuration not stated) the result was -15.37%.
For NCCNC(=O)c1ccncc1 the result was 28.52%.
For COc1ccc(NC(=O)[C@H]2CC2(C)C)cc1CO the result was 12.75%.
For Cn1ccc(NC(=O)c2ccnn2C)n1 the result was 23.26%.
For CNC1CC(=O)N(Cc2ccccc2)C1=O (configuration not stated) the result was 1.407%.
For CC(C)(C)CC(=O)NC1(C)CCS(=O)(=O)C1 (configuration not stated) the result was 0.799%.
For COc1cccc(OC)c1OCCCN1CCNCC1 the result was 3.792%.
For N#Cc1ccc(CCC(=O)NCc2cccnc2)cc1 the result was -7.419%.
For COCCCn1cnn(C(C)(C)C)c1=O the result was 1.214%.
For O=C(CSc1ncnn1-c1ccccc1)N1CCCC1 the result was 44.33%.
For CCCNC(=O)CNc1cc(F)c(OC)c(F)c1 the result was 61.51%.
For CN(CCOc1ccccc1)C(=O)Nc1ccn(C)n1 the result was 36.63%.
For NC(=O)C1CCCN(S(=O)(=O)Cc2ccc(Cl)cc2)C1 (configuration not stated) the result was 8.986%.
For CCOc1ncccc1NC(=O)c1[nH]ncc1Br the result was -6.931%.
For CSc1ccc(C(CN)N(C)C)cc1 (configuration not stated) the result was 73.55%.
For OCC1(CNCc2ccccc2)CC1 the result was -10.43%.
For CN(C)C(CNC(=O)Nc1cccnc1)c1ccco1 (configuration not stated) the result was 6.834%.
For CC(=O)NC1CN(C(=O)NCc2ccc(Br)c(F)c2)C1 the result was -3.231%.
For COCCN1CCCN(C(=O)c2ccccc2Cl)CC1 the result was 10.06%.
For CC(=O)N1CCC(C(=O)N(C)Cc2cscn2)CC1 the result was 3.451%.
For Cn1cc(CNCC(=O)NCc2ccco2)cn1 the result was 0.3275%.
For CCOC(=O)CN(C(C)=O)c1ccc(C)cc1 the result was 22.74%.
For CS(=O)(=O)c1ccccc1CN the result was 8.01%.
For Cc1csc(CNc2ccc(OCCO)nc2)n1 the result was -24.78%.
For OCC1CCN(Cc2ccc(F)c3cccnc23)CC1 the result was 0.7709%.
For Cc1cc(=O)n2nccc2[nH]1 the result was -7.83%.

From ChEMBL document CHEMBL3988442, “University of Dundee, Small-Polar-MMV Screening Library” (2021).